Columns and labels:
NCCC[C@H](N)C(=O)O = test: purified protein; settings: 3 mM ATP, 15 mM MgCl2, 150 mM hydroxylamine, HEPES pH 7.5, 37 °C
NCCCC[C@H](N)C(=O)O = test: purified protein; settings: 3 mM ATP, 15 mM MgCl2, 150 mM hydroxylamine, HEPES pH 7.5, 37 °C, 1 µM enzyme

PosA adenylation domain (Acinetobacter baumannii AB307-0294; M218A)
Km (NCCC[C@H](N)C(=O)O; 1 µM enzyme): 0.51 ± 0.02 mM
Vmax (NCCC[C@H](N)C(=O)O; 1 µM enzyme): 14.5 µM/min
kcat (NCCC[C@H](N)C(=O)O; 1 µM enzyme): 0.242 s⁻¹
kcat/Km (NCCC[C@H](N)C(=O)O; 1 µM enzyme): 474 M⁻¹ s⁻¹
Km (NCCCC[C@H](N)C(=O)O): 4.26 ± 0.54 mM
Vmax (NCCCC[C@H](N)C(=O)O): 7.06 µM/min
kcat (NCCCC[C@H](N)C(=O)O): 0.118 s⁻¹
kcat/Km (NCCCC[C@H](N)C(=O)O): 27.6 M⁻¹ s⁻¹

PosA adenylation domain (Acinetobacter baumannii AB307-0294; S313A)
Km (NCCC[C@H](N)C(=O)O; 8 µM enzyme): 32.2 ± 3.1 mM
Vmax (NCCC[C@H](N)C(=O)O; 8 µM enzyme): 45.7 µM/min
kcat (NCCC[C@H](N)C(=O)O; 8 µM enzyme): 0.0952 s⁻¹
kcat/Km (NCCC[C@H](N)C(=O)O; 8 µM enzyme): 2.96 M⁻¹ s⁻¹

PosA adenylation domain (Acinetobacter baumannii AB307-0294; T304A)
Km (NCCC[C@H](N)C(=O)O; 5 µM enzyme): 2.12 ± 0.26 mM
Vmax (NCCC[C@H](N)C(=O)O; 5 µM enzyme): 10.4 µM/min
kcat (NCCC[C@H](N)C(=O)O; 5 µM enzyme): 0.0347 s⁻¹
kcat/Km (NCCC[C@H](N)C(=O)O; 5 µM enzyme): 16.4 M⁻¹ s⁻¹

— paper PMC10522769
